PubChem BioAssay AID504761, Drosophila RNAi Screening Center, 2011
The deposit covers about 22,000 reagents; below is a random part of those with a known target gene and a result. In the full data, 116 (0.52%) were called active. 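Calls depend on retest data that are not deposited; infection was ranked per plate without normalising between plates; the unit of the infection score is not given.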 The numbers tell different reagents against one gene apart. Names joined by + are all predicted targets of the reagent. Further read-outs or replicates are left out here. Not given: the amount of reagent, the time to read-out.

Screen: 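Fly genes whose silencing reduces dengue virus type 2 infection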 (primary screen)
System: D.Mel-2 cells from Drosophila
Reagent: long dsRNA against Drosophila genes
Treatment: infection with dengue virus type 2; dose and infection time not stated
Measurement: 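Per well on two replicate plates, imaging gave the percent of cells positive for viral envelope protein, ranked by infection, and a nuclear count of cells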
Scale: infection score: higher = more virus-infected cells
Hit rule: 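Very low infection ranking in both replicate wells (chance probability at most 0.065), then a retest showing infection dropped 1.5-fold or more at p below 0.05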
Calls: active = confirmed: knock-down lowers infection; inactive = not picked or not confirmed

gene	dsRNA no.	infection score, replicate 1	infection score, replicate 2	activity call
CG1409	1		22	inactive
CG15878	1	2.28	13.2	inactive
CG15878	2	10.8	7.5	inactive
His3:CG33818 + His3:CG33857 + His3:CG33806 + 21 more	1	19.5	16.1	inactive
Adh + Adhr	1	25.5	5.06	inactive
Adh + Adhr	2	5.25	11.3	inactive
mthl11 (methuselah-like 11)	1	1.02	2.03	inactive
mthl11 (methuselah-like 11)	2	17.2	6.02	inactive
mRpL30 (mitochondrial ribosomal protein L30)	1		12.1	inactive
mRpL30 (mitochondrial ribosomal protein L30)	2	7.24	4.49	inactive
sna (snail)	1	1.41	0.89	inactive
msb1l	1	37.8	12.9	inactive
msb1l	2	2.42	5.77	inactive
Erasp (Endoplasmic reticulum stress-associated serine protease)	1	42	48.7	inactive
MED14 (Mediator complex subunit 14)	1	25.3	31.9	inactive
MED14 (Mediator complex subunit 14)	2	4.27	6.45	inactive
Slob (retired record)	1	6.75	2.56	inactive
CG43066	1	1.33	0.73	inactive
CG43066	2	2.22	6.54	inactive
Srr (Serine racemase)	1	2.62	4.1	inactive
Srr (Serine racemase)	2	7.25	2.16	inactive
ND-B17.2 (NADH dehydrogenase (ubiquinone) B17.2 subunit)	1	10.5	7.94	inactive
ND-B17.2 (NADH dehydrogenase (ubiquinone) B17.2 subunit)	2	2.18	8.48	inactive
CG11842	1	1.74	9.58	inactive
CG11842	2	1.65	3.08	inactive
dup (double parked)	1	9.05	17.3	inactive
Ski6	1	5.55	10.3	inactive
Rtc1	1	18.1	15.7	inactive
CG14408	1	1.82	2.79	inactive
CG4707	1	4.65	20.1	inactive
Eh (Eclosion hormone)	1	7.99	3.24	inactive
CG14110	1	0.94	0.97	inactive
CG13326	1	2.57	8.61	inactive
CG9004	1	4.28	3.1	inactive
Cul1 (Cullin 1)	1	11	25.1	inactive
Cul1 (Cullin 1)	2	8.5	0.48	inactive
Ccp84Ag	1	8.92	13.5	inactive
Ccp84Ag	2	4.5	4.29	inactive
Ccp84Ag	3	3.82	10	inactive
btv (beethoven)	1	0.81	0.5	inactive
btv (beethoven)	2	0.14	0.94	inactive
CG11110	1	5.21	1.35	inactive
CG11110	2	4.57	21.5	inactive
ND-MLRQ (NADH dehydrogenase (ubiquinone) MLRQ subunit)	1	3.5	8.63	inactive
CG3906	1	1.43	24.2	inactive
CG3906	2	12.6	11.5	inactive
CG31752	1	8.66	1.26	inactive
CG14689	1	1.43	3.78	inactive
CG14689	2	16.1	18.4	inactive
CG3277	1	2.62	2.27	inactive
Hmt4-20 (Histone methyltransferase 4-20)	1	16.1	5.23	inactive
Hmt4-20 (Histone methyltransferase 4-20)	2	1.13	5.98	inactive
CG1288	1	10.7	3.81	inactive
CG1288	2	6.46	6.52	inactive
CG42335	1	1.64	2.14	inactive
CG42335	2	2.97	3.52	inactive
CG42335	3	2.28	2.55	inactive
Ir76b (Ionotropic receptor 76b)	1	1.58	2.54	inactive

Ordered by “infection score, replicate 1” (lowest first): 3 of the entries above.
gene	dsRNA no.	infection score, replicate 1	infection score, replicate 2	activity call
Adh + Adhr	2	5.25	11.3	inactive
His3:CG33818 + His3:CG33857 + His3:CG33806 + 21 more	1	19.5	16.1	inactive
Adh + Adhr	1	25.5	5.06	inactive
